Compound potency records, mixed from different reports. Data source: NIAID ChemDB in PubChem.

All rows: target-level tests; agent: HIV-1; target: Integrase

Blank or dashed fields: not listed here. Rows are shuffled and stem from different studies. Two numbers with a dash give a range or band. ICn is the concentration giving n% inhibition.

smiles,read-out,strain or isolate,read by,changes,value
O=C(O)C(=O)/C=C(\O)c1cn(-c2ccccc2)c(=O)n(-c2ccc(F)cc2)c1=O,IC50,-,3′ processing,-,5.7 µM
Cc1ncnn1-c1cc(F)ccc1CNC(=O)c1nc2n(c(=O)c1O)CCOCC21CCN(C(=O)OCc2ccccc2)CC1,Ki,-,binding / radiometric,-,0.003–0.05 µM
CCN1C/C(=C\c2ccc([N+](=O)[O-])c(O)c2)C(=O)/C(=C/c2ccc([N+](=O)[O-])c(O)c2)C1,IC50,-,3′ processing,-,>100 µM
CCN(CC)CCCC(C)Nc1ccnc2cc(Cl)ccc12,IC50,-,3′ processing,-,30.5 µM
O=C(O)C(=O)c1c(O)[nH]c2ccccc12,IC50,-,strand transfer,-,600 µM
O=C(NCCO)c1cn2ccn(Cc3cccc(Cl)c3)c(=O)c2c(O)c1=O,IC50,-,ELISA,-,0.01–0.1 µM
COc1ccccc1C(=O)CC(=O)/C=C(\O)C(=O)O,IC50,-,strand transfer,-,190 µM
Cc1ncc(COP(=O)(O)O)c(C=O)c1O,IC50,-,strand transfer,-,18 µM
O=C(O)C(=O)/C=C(\O)c1cn(Cc2ccccc2)c(=O)n(Cc2ccccc2)c1=O,IC50,-,strand transfer,-,0.2 µM
Cc1ccc(-c2nc(SCc3ccc([N+](=O)[O-])cc3)[nH]c(=O)c2C#N)cc1,IC50,-,strand transfer,-,35 µM
CCN(CC)CCCC(C)Nc1cncc2ccccc12,IC50,-,strand transfer,-,>300 µM
O=C(NCCCC(NC(=O)c1ccc(O)c(O)c1)C(=O)O)c1ccc(O)c(O)c1,IC50,-,3′ processing,-,>10 µM
CS(=O)(=O)CCC1CN(Cc2ccc(Cl)c(Cl)c2)C(=O)c2c(O)c(=O)ccn21,IC50,-,ELISA,-,0.01–0.1 µM
CCOC(=O)C1C/C(=C\c2cc(O)c(O)c(O)c2)C(=O)/C(=C/c2cc(O)c(O)c(O)c2)C1,IC50,-,disintegration,-,0.3 µM
O=C(O)/C(O)=C/C(=O)n1c(=O)n(Cc2ccccc2)c(=O)n1Cc1ccccc1,IC50,-,3′ processing,-,17 µM
O=C1c2c(O)c(=O)ccn2C2(CCCCC2)CN1Cc1ccc(Cl)c(Cl)c1,IC50,-,ELISA,-,0.01–0.1 µM
COC(=O)C(CCCNC(=O)/C=C/c1cc(O)c(O)c(O)c1)NC(=O)/C=C/c1cc(O)c(O)c(O)c1,IC50,-,3′ processing,-,0.74 µM
O=c1ccn2ccn(Cc3ccc(Cl)c(Cl)c3)c(=O)c2c1O,IC50,-,ELISA,-,<0.01 µM
C[C@H](c1ccccc1)n1c(=O)c2c(=O)c3[nH]cc[nH]c3c(=O)c2c1=O,IC50,-,-,-,2.05 µM
CC(=O)N1CCC2(CC1)COCCn1c2nc(C(=O)NCc2ccc(F)cc2-n2ncnc2C)c(O)c1=O,Ki,-,binding / radiometric,-,0.003–0.05 µM
N#Cc1c(-c2cccc([N+](=O)[O-])c2)nc(SCCc2ccccc2)[nH]c1=O,IC50,-,strand transfer,-,58 µM
CC1Cn2ccc(=O)c(O)c2C(=O)N1Cc1ccc(Cl)c(Cl)c1,IC50,-,ELISA,-,0.01–0.1 µM
COc1ccc2c(c1)c1c3c(ccc1n2C)C(=O)N(CCN(C)C)C3=O,IC50,-,ELISA / strand transfer / luminescence,-,4.42 µM
CN1CCN(Cc2cn3c(=O)c(O)c(C(=O)NCc4ccc(Cl)c(Cl)c4)nc3s2)CC1,IC50,-,strand transfer,-,<0.001 µM
O=C1/C(=C/c2cc(O)c(O)c(O)c2)CSC/C1=C\c1cc(O)c(O)c(O)c1,IC50,-,3′ processing,-,0.7 µM
O=c1c(-c2ccco2)cn2ccn(Cc3cccc(Cl)c3)c(=O)c2c1O,IC50,-,ELISA,-,<0.01 µM
N#Cc1c(-c2ccc(Cl)cc2)nc(SCc2ccc([N+](=O)[O-])cc2)[nH]c1=O,IC50,-,strand transfer,-,100 µM
COC(=O)C(CCCCNC(=O)/C=C/c1cc(O)c(O)c(O)c1)NC(=O)/C=C/c1cc(O)c(O)c(O)c1,IC50,-,3′ processing,-,2.4 µM
O=C1C(=O)c2cc(-c3cc(O)c(O)c(O)c3)ccc2C(Oc2c(O)cc(-c3ccc4cc(O)c(O)c(O)c4c3)cc2O)=C1O,IC50,-,3′ processing,-,0.45 µM
COc1cc2c(c3c1[nH]c1ccc(O)cc13)C(=O)N(CCN(C)C)C2=O,IC50,-,ELISA / strand transfer / luminescence,-,25.01 µM
CC(C)C1CN(Cc2ccc(Cl)c(Cl)c2)C(=O)c2c(O)c(=O)ccn21,IC50,-,ELISA,-,0.01–0.1 µM
Cc1ncnn1-c1cc(F)ccc1CNC(=O)c1nc2n(c(=O)c1O)CCCOC21CCN(S(=O)(=O)N(C)C)CC1,Ki,-,binding / radiometric,-,0.003–0.05 µM
Cc1cc(O)cc2c1[nH]c1c(C)cc3c(c12)C(=O)N(CCN(C)C)C3=O,IC50,-,ELISA / strand transfer / luminescence,-,8.99 µM
CCN(CC)CCCC(C)Nc1cncc2cc(F)ccc12,IC50,-,strand transfer,-,>300 µM
O=C(CC(=O)c1ccccc1O)c1ccccc1,IC50,-,strand transfer,-,333 µM
CC1=C(C#N)c2nc(N)c(C#N)c(C)c2/C1=C/c1ccc(-c2ccc(O)c(C(=O)O)c2)o1,IC50,-,3′ processing,-,9 µM
Cc1cn2c(=O)c(O)c(-c3ncc(Cc4ccc(Cl)c(Cl)c4)s3)nc2s1,IC50,-,strand transfer,G140S/Q148H,0.001–1 µM
COc1cc(NC(C)CCCN)c2ncccc2c1,IC50,-,3′ processing,-,23.5 µM
C[C@H](NC(=O)/C=C(\O)C(=O)O)c1ccccc1,IC50,-,-,-,>300 µM
CCN1C/C(=C\c2cc(O)c(O)c(O)c2)C(=O)/C(=C/c2cc(O)c(O)c(O)c2)C1,IC50,-,strand transfer,-,0.4 µM
CCOC(=O)c1cn(C)c2cc(N3CCN(c4ccccn4)CC3)c(N)cc2c1=O,IC50,-,3′ processing,-,>100 µM
Cc1ncnn1-c1cc(F)ccc1CNC(=O)c1nc2n(c(=O)c1O)CCCOC21CCN(C(=O)C(=O)N(C)C)CC1,Ki,-,binding / radiometric,-,0.003–0.05 µM
CNC(=O)NC[C@H]1O[C@@H](n2cnc3c(NC(=O)Nc4ccccc4)ncnc32)[C@@H]2OC(=O)C[C@@H]21,IC50,NL4-3,3′ processing,-,>10 µM
COc1ccc(-c2nc(SCc3ccc([N+](=O)[O-])cc3)[nH]c(=O)c2C#N)cc1,IC50,-,strand transfer,-,75 µM
CNC(=O)NC[C@H]1O[C@@H](n2cnc3c(NC(=O)Nc4ccccc4)ncnc32)[C@H](O)[C@@H]1CC(=O)O,IC50,NL4-3,3′ processing,-,>10 µM
O=C(O)C(=O)/C=C(\O)c1cn(-c2ccccc2)c(=O)[nH]c1=O,IC50,-,3′ processing,-,10 µM
CN1C/C(=C\c2ccc([N+](=O)[O-])c(O)c2)C(=O)/C(=C/c2ccc([N+](=O)[O-])c(O)c2)C1,IC50,-,3′ processing,-,>100 µM
COc1ccc2[nH]c3c(C)cc4c(c3c2c1)C(=O)N(Cc1ccccc1)C4=O,IC50,-,ELISA / strand transfer / luminescence,-,>100 µM
Oc1cc(O)cc(Oc2c(O)cc3c(c2O)Oc2cc(Oc4c(O)cc(O)cc4O)c(O)c(O)c2O3)c1,IC50,-,3′ processing,-,25.2 µM
CCC/C=C/CCCCCCc1cc(O)cc(O)c1C(=O)OC(CCC)CCCCCCCc1cc(O)cc(O)c1,IC50,-,strand transfer,-,88 µM
O=C1/C(=C/c2cc(O)c(O)c(O)c2)CC/C1=C\c1cc(O)c(O)c(O)c1,IC50,-,3′ processing,-,1.6 µM
Cc1cn2c(=O)c(O)c(-c3ncc(Cc4ccc(Cl)cc4)s3)nc2s1,IC50,-,strand transfer,G140S/Q148H,>10 µM
C[C@@H](c1ccccc1)n1c(=O)c2c(=O)c3[nH]cc[nH]c3c(=O)c2c1=O,IC50,-,-,-,1.05 µM
O=C(NCc1ccc(Cl)c(Cl)c1)c1nc2sc(CN3CCOCC3)cn2c(=O)c1O,IC50,-,strand transfer,-,0.001–1 µM
CN(C)C(=O)C(=O)N1CCC2(CC1)NCCn1c2nc(C(=O)NCc2ccc(F)cc2)c(O)c1=O,Ki,-,binding / radiometric,-,0.003–0.05 µM
COC(=O)C(CCNC(=O)c1ccc(O)c(O)c1)NC(=O)c1ccc(O)c(O)c1,IC50,-,3′ processing,-,>10 µM
O=C1c2ccc3c(c2C(=O)N1Cc1ccccc1)c1ccccc1n3-c1ccccc1,IC50,-,ELISA / strand transfer / luminescence,-,>100 µM
Cc1cn2c(=O)c(O)c(-c3ncc(Cc4ccc(F)cc4)s3)nc2s1,IC50,-,strand transfer,-,<0.001 µM
CN1C/C(=C\c2ccc(O)c(O)c2)C(=O)/C(=C/c2ccc(O)c(O)c2)C1,IC50,-,3′ processing,-,0.5 µM
O=C(NCc1ccc(F)cc1)C1C(=O)N(O)C(=O)c2ccccc21,IC50,-,ELISA,-,0.056 µM
COC(=O)C(CCNC(=O)/C=C/c1ccc(O)c(O)c1)NC(=O)/C=C/c1ccc(O)c(O)c1,IC50,-,3′ processing,-,~10 µM
CNC(=O)NC[C@H]1O[C@@H](n2cnc3c(NC(=O)Nc4ccccc4)ncnc32)[C@H](O[Si](C)(C)C(C)(C)C)[C@@H]1CC(=O)N(C)OC,IC50,NL4-3,3′ processing,-,>10 µM
COC(=O)C1CN(Cc2ccc(Cl)c(Cl)c2)C(=O)c2c(O)c(=O)ccn21,IC50,-,ELISA,-,0.01–0.1 µM
CCOC(=O)CC1C/C(=C\c2cc(O)c(O)c(O)c2)C(=O)/C(=C/c2cc(O)c(O)c(O)c2)C1,IC50,-,3′ processing,-,2.6 µM

The last 6 rows once more:

smiles,read-out,strain or isolate,read by,changes,value
CN1C/C(=C\c2ccc(O)c(O)c2)C(=O)/C(=C/c2ccc(O)c(O)c2)C1,IC50,-,3′ processing,-,0.5 µM
O=C(NCc1ccc(F)cc1)C1C(=O)N(O)C(=O)c2ccccc21,IC50,-,ELISA,-,0.056 µM
COC(=O)C(CCNC(=O)/C=C/c1ccc(O)c(O)c1)NC(=O)/C=C/c1ccc(O)c(O)c1,IC50,-,3′ processing,-,~10 µM
CNC(=O)NC[C@H]1O[C@@H](n2cnc3c(NC(=O)Nc4ccccc4)ncnc32)[C@H](O[Si](C)(C)C(C)(C)C)[C@@H]1CC(=O)N(C)OC,IC50,NL4-3,3′ processing,-,>10 µM
COC(=O)C1CN(Cc2ccc(Cl)c(Cl)c2)C(=O)c2c(O)c(=O)ccn21,IC50,-,ELISA,-,0.01–0.1 µM
CCOC(=O)CC1C/C(=C\c2cc(O)c(O)c(O)c2)C(=O)/C(=C/c2cc(O)c(O)c(O)c2)C1,IC50,-,3′ processing,-,2.6 µM